{"source": "ChEMBL document CHEMBL1150695", "about": "“The synthesis of SO-3, a conopeptide with high analgesic activity derived from Conus striatus” (2003)", "key": {"[1]": {"tested_on": "Mus musculus", "assay": "Analgesic activity in mouse assessed as reaction time required for tail flicking at 2.2 ug/kg, intracerebrally after 2.5 hrs by light radiation method"}, "[2]": {"tested_on": "Mus musculus", "assay": "Analgesic activity in mouse assessed as reaction time required to elicit jumping or hind paw licking at 1 ug/kg, intracerebrally after 2.5 hrs by hot plate method"}, "[3]": {"tested_on": "Mus musculus", "assay": "Analgesic activity in mouse assessed as reaction time required for tail flicking at 1.7 ug/kg, intracerebrally after 3.3 hrs by light radiation method"}, "[4]": {"tested_on": "Mus musculus", "assay": "Analgesic activity in mouse assessed as reaction time required for tail flicking at 0.7 ug/kg, intracerebrally after 1 hr by light radiation method"}, "[5]": {"tested_on": "Mus musculus", "assay": "Analgesic activity in mouse assessed as reaction time required to elicit jumping or hind paw licking at 3 ug/kg, intracerebrally after 2.5 hrs by hot plate method"}, "[6]": {"tested_on": "Rattus norvegicus", "assay": "Analgesic activity in rat assessed as increase of threshold for tail withdrawal at 2 ug/kg, intracerebrally by mechanical stimulus test"}, "[7]": {"tested_on": "Mus musculus", "assay": "Analgesic activity in mouse assessed as reaction time required to elicit jumping or hind paw licking at 1.5 ug/kg, intracerebrally after 2.5 hrs by hot plate method"}, "[8]": {"tested_on": "Rattus norvegicus", "assay": "Analgesic activity in rat assessed as reaction time required for tail flicking response at 1.2 ug/kg, intracerebrally after 1 hr by tail-flicking reaction method"}, "[9]": {"tested_on": "Mus musculus", "assay": "Analgesic activity in mouse assessed as reaction time required for tail flicking at 1.7 ug/kg, intracerebrally after 2.5 hrs by light radiation method"}, "[10]": {"tested_on": "Mus musculus", "assay": "Analgesic activity in mouse assessed as reaction time required for tail flicking at 0.7 ug/kg, intracerebrally after 4 hrs by light radiation method"}, "[11]": {"tested_on": "Rattus norvegicus", "assay": "Analgesic activity in rat assessed as reaction time required for tail flicking response at 1.2 ug/kg, intracerebrally after 4 hrs by tail-flicking reaction method"}, "[12]": {"tested_on": "Rattus norvegicus", "assay": "Analgesic activity in rat assessed as reaction time required for tail flicking response at 2 ug/kg, intracerebrally after 4 hrs by tail-flicking reaction method"}, "[13]": {"tested_on": "Rattus norvegicus", "assay": "Analgesic activity in rat assessed as reaction time required for tail flicking response at 2 ug/kg, intracerebrally after 1 hr by tail-flicking reaction method"}, "[14]": {"tested_on": "Mus musculus", "assay": "Analgesic activity in mouse assessed as reaction time required for tail flicking at 3.2 ug/kg, intracerebrally after 1 hr by light radiation method"}, "[15]": {"tested_on": "Mus musculus", "assay": "Analgesic activity in mouse assessed as reaction time required to elicit jumping or hind paw licking at 0.5 ug/kg, intracerebrally after 2.5 hrs by hot plate method"}, "[16]": {"tested_on": "Mus musculus", "assay": "Analgesic activity in mouse assessed as reaction time required for tail flicking at 1.2 ug/kg, intracerebrally after 4 hrs by light radiation method"}, "[17]": {"tested_on": "Mus musculus", "assay": "Analgesic activity in mouse assessed as reaction time required for tail flicking at 1.2 ug/kg, intracerebrally after 2.5 hrs by light radiation method"}, "[18]": {"tested_on": "Mus musculus", "assay": "Analgesic activity in mouse assessed as reaction time required for tail flicking at 3.2 ug/kg, intracerebrally after 2.5 hrs by light radiation method"}, "[19]": {"tested_on": "Mus musculus", "assay": "Analgesic activity in mouse assessed as decrease in acetic acid-induced twisting motion at 0.7 ug/kg, intracerebral"}, "[20]": {"tested_on": "Mus musculus", "assay": "Analgesic activity in mouse assessed as reaction time required to elicit jumping or hind paw licking at 1 ug/kg, intracerebrally after 1.5 hrs by hot plate method"}, "[21]": {"tested_on": "Mus musculus", "assay": "Analgesic activity in mouse assessed as reaction time required for tail flicking at 2.2 ug/kg, intracerebrally after 4 hrs by light radiation method"}, "[22]": {"tested_on": "Mus musculus", "assay": "Analgesic activity in mouse assessed as reaction time required for tail flicking at 2.7 ug/kg, intracerebrally after 4 hrs by light radiation method"}, "[23]": {"tested_on": "Mus musculus", "assay": "Analgesic activity in mouse assessed as reaction time required for tail flicking at 2.2 ug/kg, intracerebrally after 3.3 hrs by light radiation method"}, "[24]": {"tested_on": "Rattus norvegicus", "assay": "Analgesic activity in rat assessed as reaction time required for tail flicking response at 2 ug/kg, intracerebrally after 2 hrs by tail-flicking reaction method"}, "[25]": {"tested_on": "Rattus norvegicus", "assay": "Analgesic activity in rat assessed as reaction time required for tail flicking response at 1.2 ug/kg, intracerebrally after 2 hrs by tail-flicking reaction method"}, "[26]": {"tested_on": "Mus musculus", "assay": "Analgesic activity in mouse assessed as reaction time required to elicit jumping or hind paw licking at 0.5 ug/kg, intracerebrally after 1.5 hrs by hot plate method"}, "[27]": {"tested_on": "Mus musculus", "assay": "Analgesic activity in mouse assessed as reaction time required to elicit jumping or hind paw licking at 1 ug/kg, intracerebrally after 0.5 hrs by hot plate method"}, "[28]": {"tested_on": "Mus musculus", "assay": "Analgesic activity in mouse assessed as reaction time required to elicit jumping or hind paw licking at 3 ug/kg, intracerebrally after 0.5 hrs by hot plate method"}, "[29]": {"tested_on": "Mus musculus", "assay": "Analgesic activity in mouse assessed as reaction time required for tail flicking at 2.7 ug/kg, intracerebrally after 2.5 hrs by light radiation method"}, "[30]": {"tested_on": "Mus musculus", "assay": "Analgesic activity in mouse assessed as reaction time required for tail flicking at 3.2 ug/kg, intracerebrally after 3.3 hrs by light radiation method"}, "[31]": {"tested_on": "Mus musculus", "assay": "Analgesic activity in mouse assessed as reaction time required to elicit jumping or hind paw licking at 0.5 ug/kg, intracerebrally after 0.5 hrs by hot plate method"}, "[32]": {"tested_on": "Rattus norvegicus", "assay": "Analgesic activity in rat assessed as reaction time required for tail flicking response at 2 ug/kg, intracerebrally after 3 hrs by tail-flicking reaction method"}, "[33]": {"tested_on": "Rattus norvegicus", "assay": "Analgesic activity in rat assessed as reaction time required for tail flicking response at 1.2 ug/kg, intracerebrally after 3 hrs by tail-flicking reaction method"}}}
{"smiles": "CC[C@H](C)[C@@H]1NC(=O)[C@H](CCCNC(=N)N)NC(=O)[C@H](CO)NC(=O)[C@@H]2CSSC[C@@H]3NC(=O)[C@H](CO)NC(=O)CNC(=O)[C@H]([C@H](C)O)NC(=O)[C@H](CSSC[C@H](N)C(=O)N[C@@H](CCCCN)C(=O)N[C@@H](C)C(=O)N[C@@H](C)C(=O)NCC(=O)N[C@@H](CCCCN)C(=O)N4CCC[C@H]4C(=O)N2)NC(=O)[C@H](CSSC[C@@H](C(N)=O)NC(=O)[C@H](CCCCN)NC(=O)CNC(=O)[C@H](CO)NC(=O)[C@H](CCCNC(=N)N)NC3=O)NC(=O)[C@H](CC(N)=O)NC(=O)[C@H](Cc2ccc(O)cc2)NC(=O)[C@H](C)NC1=O", "values": [{"measurement": "Activity", "setting": "[1]", "result": 12.4, "unit": "s"}, {"measurement": "Activity", "setting": "[2]", "result": 15, "unit": "s"}, {"measurement": "Activity", "setting": "[3]", "result": 11.5, "unit": "s"}, {"measurement": "Activity", "setting": "[4]", "result": 12.1, "unit": "s"}, {"measurement": "Activity", "setting": "[5]", "result": 55.8, "unit": "s"}, {"measurement": "Activity", "setting": "[6]", "result": 150, "unit": "g"}, {"measurement": "Activity", "setting": "[7]", "result": 38.2, "unit": "s"}, {"measurement": "Activity", "setting": "[8]", "result": 3.3, "unit": "s"}, {"measurement": "Activity", "setting": "[9]", "result": 12.9, "unit": "s"}, {"measurement": "Activity", "setting": "[10]", "result": 8.1, "unit": "s"}, {"measurement": "Activity", "setting": "[11]", "result": 3.5, "unit": "s"}, {"measurement": "Activity", "setting": "[12]", "result": 3.2, "unit": "s"}, {"measurement": "Activity", "setting": "[13]", "result": 3.2, "unit": "s"}, {"measurement": "Activity", "setting": "[14]", "result": 11.2, "unit": "s"}, {"measurement": "Activity", "setting": "[15]", "result": 15.8, "unit": "s"}, {"measurement": "Activity", "setting": "[16]", "result": 7.66, "unit": "s"}, {"measurement": "Activity", "setting": "[17]", "result": 8.5, "unit": "s"}, {"measurement": "Activity", "setting": "[18]", "result": 11.8, "unit": "s"}, {"measurement": "Activity", "setting": "[19]", "result": 9.6}, {"measurement": "Activity", "setting": "[20]", "result": 16.2, "unit": "s"}, {"measurement": "Activity", "setting": "[21]", "result": 7.3, "unit": "s"}, {"measurement": "Activity", "setting": "[22]", "result": 8.8, "unit": "s"}, {"measurement": "Activity", "setting": "[23]", "result": 9.6, "unit": "s"}, {"measurement": "Activity", "setting": "[24]", "result": 4, "unit": "s"}, {"measurement": "Activity", "setting": "[25]", "result": 3.6, "unit": "s"}, {"measurement": "Activity", "setting": "[26]", "result": 20, "unit": "s"}, {"measurement": "Activity", "setting": "[27]", "result": 43, "unit": "s"}, {"measurement": "Activity", "setting": "[28]", "result": "> 60", "unit": "s"}, {"measurement": "Activity", "setting": "[29]", "result": 11.9, "unit": "s"}, {"measurement": "Activity", "setting": "[30]", "result": 11.1, "unit": "s"}, {"measurement": "Activity", "setting": "[31]", "result": 23.4, "unit": "s"}, {"measurement": "Activity", "setting": "[32]", "result": 4.5, "unit": "s"}, {"measurement": "Activity", "setting": "[33]", "result": 3.5, "unit": "s"}]}
